Assays:
[1] = tested on: IgG of pooled sera of humans who had received a pneumococcal CPS-based vaccine; assay: Glycan microarray screening with pooled sera of human pneumococcal CPS vaccine recipients; settings: for IgG of immunized humans against the synthetic glycan: human pneumococcal serum dilution 1:100, FIG. 5A
[2] = tested on: ST5 type sera raised in rabbit; assay: Glycan microarray II with ST5 type sera; settings: rabbit type 5 sera, dilution 1 in 100; FIG. 8B
[3] = tested on: structures printed on slides and native polysaccharide; settings: as CRM197 conjugates 58*c and 87*
CSP-5 polysaccharide = assay: ELISA end point titer of sera of rabbits immunized with ST5 glycan conjugates; settings: day 35; compared to tetrasaccharide 33* or conjugate 58*c
[4] = tested on: anti-SP5 specific typing sera IgG; assay: Glycan microarray screening with commercial anti-SP5 specific rabbit typing serum; settings: rabbit typing serum dilution 1:1000; FIG. 4A
[5] = tested on: antibodies produced during immunization; assay: Recognition of reference substructures by antibodies produced during immunization; settings: substructures of SP5 CPS without pneumosamine

For “5-amino-pentanyl β-D-glucopyranosyl-(1→3)-2-N-acetyl-α-L-fucosaminopyranoside”, which “IgG of immunized humans against the synthetic glycan” value (from here on “IgG of immunized humans”) [1] is on record?
The value was “very low levels”.

`CC(=O)NC1C(O)[C@@H](O)C(C)O[C@H]1OCN` (stereo partly shown) was tested. Which “IgG of immunized humans” value [1] did it give?
The value was “not detected at all”.

Which “IgG of immunized humans” value [1] does the source give for `CC(=O)NC1[C@@H](OCCCCCN)OC(C)[C@@H](O)[C@@H]1O` (stereo partly shown) here?
Its value is “very low levels”.

`CC(=O)NC1[C@H](OC2[C@H](O[C@@H]3C(NC(C)=O)[C@H](O[C@@H]4C(NC(C)=O)[C@H](OCCCCCN)OC(C)[C@@H]4O)OC(C)[C@H]3O[C@@H]3OC(CO)[C@@H](O)[C@H](O)C3O)OC(C(=O)O)[C@@H](O)[C@@H]2O)OC(C)[C@@H](O)[C@@H]1O` (stereo partly shown) was tested. Which “recognition by ST5 type sera” value [2] did it give?
The value was “high affinity”.

What about the immunogenicity in rabbit [3] of the same molecule?
The immunogenicity in rabbit was “immunogenic”.

What about the “immunogenicity compared between groups (antibody response as fold change)” value (CSP-5 polysaccharide) of the same molecule?
The value was “more immunogenic”.

How did the “IgG of immunized humans” value [1] turn out when `CC(=O)NC1C(O)[C@H](O)C(C)O[C@H]1OCCCCCN` (stereo partly shown) was run?
Its value is “very low levels”.

`CC(=O)NC1C(O)C(=O)C(C)O[C@H]1OCN` (stereo partly shown) was tested. Which “IgG of immunized humans” value [1] did it give?
Its value is “not detected at all”.

For `CC(=O)NC1[C@H](OC2[C@H](O[C@@H]3C(NC(C)=O)[C@H](O[C@@H]4C(NC(C)=O)[C@H](OCCCCCN)OC(C)[C@H]4O)OC(C)[C@H]3O[C@@H]3OC(CO)[C@@H](O)[C@H](O)C3O)OC(C(=O)O)[C@@H](O)[C@@H]2O)OC(C)[C@@H](O)[C@@H]1O` (stereo partly shown), which “recognition by ST5 type sera” value [2] is on record?
Its value is “high affinity”.

Which “binding of printed glycan by specific anti-SP5 IgG” value [4] does the source give for `CC(=O)NC1[C@H](OCCCCCN)OC(C)[C@@H](O)[C@@H]1O` (stereo partly shown) here?
The value was “bound by specific anti-SP5 IgG”.

What about the “IgG of immunized humans” value [1] of the same molecule?
Its value is “lower levels”.

`CC(=O)NC1C(O[C@@H]2OC(C(=O)O)[C@@H](O)C(O)C2O)C(O[C@@H]2OC(CO)[C@@H](O)C(O)C2O)[C@H](C)O[C@H]1OC1C(NC(C)=O)[C@H](OCCCCCN)OC(C)[C@@H]1O` (stereo partly shown) was tested. Which “recognition by the antibodies produced during immunization” value [5] did it give?
Its value is “not recognized”.

How did the “IgG of immunized humans” value [1] turn out when “5-amino-pentanyl β-D-glucopyranosyluronate-(1→4)-2-N-acetyl-α-L-fucosaminopyranoside” was run?
Its value is “low levels”.

Which results are given for `CC(=O)NC1C(O)[C@H](O)C(C)O[C@H]1OC1C(O)[C@H](O)C(C(=O)O)O[C@H]1OCN` (stereo partly shown)?
binding of printed glycan by specific anti-SP5 IgG [4]: bound by specific anti-SP5 IgG; level of IgG binding, 33* and 27* compared with each other [4]: comparable levels; IgG of immunized humans against the synthetic glycan [1]: lower levels

How did the “recognition by ST5 type sera” value [2] turn out when `CC(=O)NC1C(O)[C@H](O)C(C)O[C@H]1OC1C(O)[C@H](O)C(C(=O)O)O[C@H]1OC1C(NC(C)=O)[C@H](OC2C(NC(C)=O)[C@H](OCN)OC(C)[C@@H]2O)OC(C)[C@H]1O` (stereo partly shown) was run?
Its value is “high affinity”.

What about the “binding of printed glycan by specific anti-SP5 IgG” value [4] of the same molecule?
Its value is “bound by specific anti-SP5 IgG”.

What about the “level of IgG binding, 33* and 27* compared with each other” value [4] of the same molecule?
Its value is “comparable levels”.

What about the “anti-glycan IgG levels after pre-incubation of human sera with natural SP5 CPS” value ([1]; SP5 CPS 5 μg/mL, FIG. 5B) of the same molecule?
Its value is “significant reduction”.

And the “IgG of immunized humans” value [1]?
The value was “predominantly”.

What about the immunogenicity in rabbit [3] of the same molecule?
Its immunogenicity in rabbit is “immunogenic”.

With `CC(=O)NC1C(O[C@@H]2OC(C)[C@@H](O)C(O)C2NC(C)=O)C(=O)C(C)O[C@H]1OCN` (stereo partly shown) as the molecule, how does the “IgG of immunized humans” value [1] read?
Its value is “very low levels”.

Which “recognition by the antibodies produced during immunization” value [5] does the source give for `CC(=O)NC1C(O[C@@H]2OC(C(=O)O)[C@@H](O)C(O)C2O)C(O[C@@H]2OC(CO)[C@@H](O)C(O)C2O)[C@H](C)O[C@H]1OCCCCCN` (stereo partly shown) here?
Its value is “not recognized”.

How did the “IgG of immunized humans” value [1] turn out when `CC(=O)NC1C(O)[C@H](O)C(C)O[C@H]1OC1C(NC(C)=O)[C@H](OCN)OC(C)[C@@H]1O` (stereo partly shown) was run?
Its value is “low levels”.
